We go through five molecules from PMC9104152, “Phosphoproteomics Unravel HBV Triggered Rewiring of Host Phosphosignaling Events” (International Journal of Molecular Sciences, 2022).

This series deals with HepG2-NTCP cells. The series is described as follows: TMT-based phosphoproteome profiling of HBV-infected vs mock HepG2-NTCP (HBV/mock ratio). More on the design: species or system human. Conditions: phosphosite abundance ratio of host protein, HBV-infected vs mock HepG2-NTCP, 7dpi, sheet Up-regulated.

B1: O00418 1xPhospho [S445(99.7)] (protein, UniProt O00418 2-725, looked up)
Eukaryotic elongation factor …: ADEDLIFRLEGVDGGQSPRAGHDGDSDGDSDDEEGYFICPITDDPSSNQNVNSKVNKYYSNLTKSERYSSSGSPANSFHFKEAWKHAIQKAKHMPDPWAEFHLEDIATERATRHRYNAVTGEWLDDEVLIKMASQPFGRGAMRECFRTKKLSNFLHAQQWKGASNYVAKRYIEPVDRDVYFEDVRLQMEAKLWGEEYNRHKPPKQVDIMQMCIIELKDRPGKPLFHLEHYIEGKYIKYNSNSGFVRDDNIRLTPQAFSHFTFERSGHQLIVVDIQGVGDLYTDPQIHTETGTDFGDGNLGVRGMALFFYSHACNRICESMGLAPFDLSPRERDAVNQNTKLLQSAKTILRGTEEKCGSPQVRTLSGSRPPLLRPLSENSGDENMSDVTFDSLPSSPSSATPHSQKLDHLHWPVFSDLDNMASRDHDHLDNHRESENSGDSGYPSEKRGELDDPEPREHGHSYSNRKYESDEDSLGSSGRVCVEKWNLLNSSRLHLPRASAVALEVQRLNALDLEKKIGKSILGKVHLAMVRYHEGGRFCEKGEEWDQESAVFHLEHAANLGELEAIVGLGLMYSQLPHHILADVSLKETEENKTKGFDYLLKAAEAGDRQSMILVARAFDSGQNLSPDRCQDWLEALHWYNTALEMTDCDEGGEYDGMQDEPRYMMLAREAEMLFTGGYGLEKDPQRSGDLYTQAAEAAMEAMKGRLANQYYQKAEEAWAQMEE
modifications: phospho S445
On to B1, for which the HBV/mock came to 1.375.

B2: O00418 3xPhospho [S470(99.4); S474(100); S477(99.4)] (protein, UniProt O00418 2-725, looked up)
Eukaryotic elongation factor …: ADEDLIFRLEGVDGGQSPRAGHDGDSDGDSDDEEGYFICPITDDPSSNQNVNSKVNKYYSNLTKSERYSSSGSPANSFHFKEAWKHAIQKAKHMPDPWAEFHLEDIATERATRHRYNAVTGEWLDDEVLIKMASQPFGRGAMRECFRTKKLSNFLHAQQWKGASNYVAKRYIEPVDRDVYFEDVRLQMEAKLWGEEYNRHKPPKQVDIMQMCIIELKDRPGKPLFHLEHYIEGKYIKYNSNSGFVRDDNIRLTPQAFSHFTFERSGHQLIVVDIQGVGDLYTDPQIHTETGTDFGDGNLGVRGMALFFYSHACNRICESMGLAPFDLSPRERDAVNQNTKLLQSAKTILRGTEEKCGSPQVRTLSGSRPPLLRPLSENSGDENMSDVTFDSLPSSPSSATPHSQKLDHLHWPVFSDLDNMASRDHDHLDNHRESENSGDSGYPSEKRGELDDPEPREHGHSYSNRKYESDEDSLGSSGRVCVEKWNLLNSSRLHLPRASAVALEVQRLNALDLEKKIGKSILGKVHLAMVRYHEGGRFCEKGEEWDQESAVFHLEHAANLGELEAIVGLGLMYSQLPHHILADVSLKETEENKTKGFDYLLKAAEAGDRQSMILVARAFDSGQNLSPDRCQDWLEALHWYNTALEMTDCDEGGEYDGMQDEPRYMMLAREAEMLFTGGYGLEKDPQRSGDLYTQAAEAAMEAMKGRLANQYYQKAEEAWAQMEE
modifications: phosphorylated S470, S474, S477
B2: the HBV/mock was 1.7.

B3: Q9UJM3 2xPhospho [T127(99.5); T131(100)] (protein, UniProt Q9UJM3 2-462, looked up)
ERBB receptor feedback …: SIAGVAAQEIRVPLKTGFLHNGRAMGNMRKTYWSSRSEFKNNFLNIDPITMAYSLNSSAQERLIPLGHASKSAPMNGHCFAENGPSQKSSLPPLLIPPSENLGPHEEDQVVCGFKKLTVNGVCASTPPLTPIKNSPSLFPCAPLCERGSRPLPPLPISEALSLDDTDCEVEFLTSSDTDFLLEDSTLSDFKYDVPGRRSFRGCGQINYAYFDTPAVSAADLSYVSDQNGGVPDPNPPPPQTHRRLRRSHSGPAGSFNKPAIRISNCCIHRASPNSDEDKPEVPPRVPIPPRPVKPDYRRWSAEVTSSTYSDEDRPPKVPPREPLSPSNSRTPSPKSLPSYLNGVMPPTQSFAPDPKYVSSKALQRQNSEGSASKVPCILPIIENGKKVSSTHYYLLPERPPYLDKYEKFFREAEETNGGAQIQPLPADCGISSATEKPDSKTKMDLGGHVKRKHLSYVVSP
modifications: phospho T127, T131
For the molecule B3, the HBV/mock is 1.459.

B4: B5ME19 1xPhospho [S166(100)] (protein, UniProt B5ME19 1-914, looked up)
Eukaryotic translation …: MSRFFTTGSDSESESSLSGEELVTKPVGGNYGKQPLLLSEDEEDTKRVVRSAKDKRFEELTNLIRTIRNAMKIRDVTKCLEEFELLGKAYGKAKSIVDKEGVPRFYIRILADLEDYLNELWEDKEGKKKMNKNNAKALSTLRQKIRKYNRDFESHITSYKQNPEQSADEDAEKNEEDSEGSSDEDEDEDGVSAATFLKKKSEAPSGESRKFLKKMDDEDEDSEDSEDDEDWDTGSTSSDSDSEEEEGKQTALASRFLKKAPTTDEDKKAAEKKREDKAKKKHDRKSKRLDEEEEEDNEGGEWERVRGGVPLVKEKPKMFAKGTEITHAVVIKKLNEILQARGKKGTDRAAQIELLQLLVQIAAENNLGEGVIVKIKFNIIASLYDYNPNLATYMKPEMWGKCLDCINELMDILFANPNIFVGENILEESENLHNADQPLRVRGCILTLVERMDEEFTKIMQNTDPHSQEYVEHLKDEAQVCAIIERVQRYLEEKGTTEEVCRIYLLRILHTYYKFDYKAHQRQLTPPEGSSKSEQDQAENEGEDSAVLMERLCKYIYAKDRTDRIRTCAILCHIYHHALHSRWYQARDLMLMSHLQDNIQHADPPVQILYNRTMVQLGICAFRQGLTKDAHNALLDIQSSGRAKELLGQGLLLRSLQERNQEQEKVERRRQVPFHLHINLELLECVYLVSAMLLEIPYMAAHESDARRRMISKQFHHQLRVGERQPLLGPPESMREHVVAASKAMKMGDWKTCHSFIINEKMNGKVWDLFPEADKVRTMLVRKIQEESLRTYLFTYSSVYDSISMETLSDMFELDLPTVHSIISKMIINEELMASLDQPTQTVVMHRTEPTAQQNLALQLAEKLGSLVENNERVFDHKQGTYGGYFRDQKDGYRKNEGYMRRGGYRQQQSQTAY
modifications: phosphorylated S166
B4: the HBV/mock turned out to be 1.611.

B5: O60841 1xPhospho [S511(100)] (protein, UniProt O60841 1-1220, looked up)
Eukaryotic translation …: MGKKQKNKSEDSTKDDIDLDALAAEIEGAGAAKEQEPQKSKGKKKKEKKKQDFDEDDILKELEELSLEAQGIKADRETVAVKPTENNEEEFTSKDKKKKGQKGKKQSFDDNDSEELEDKDSKSKKTAKPKVEMYSGSDDDDDFNKLPKKAKGKAQKSNKKWDGSEEDEDNSKKIKERSRINSSGESGDESDEFLQSRKGQKKNQKNKPGPNIESGNEDDDASFKIKTVAQKKAEKKERERKKRDEEKAKLRKLKEKEELETGKKDQSKQKESQRKFEEETVKSKVTVDTGVIPASEEKAETPTAAEDDNEGDKKKKDKKKKKGEKEEKEKEKKKGPSKATVKAMQEALAKLKEEEERQKREEEERIKRLEELEAKRKEEERLEQEKRERKKQKEKERKERLKKEGKLLTKSQREARARAEATLKLLQAQGVEVPSKDSLPKKRPIYEDKKRKKIPQQLESKEVSESMELCAAVEVMEQGVPEKEETPPPVEPEEEEDTEDAGLDDWEAMASDEETEKVEGNKVHIEVKENPEEEEEEEEEEEEDEESEEEEEEEGESEGSEGDEEDEKVSDEKDSGKTLDKKPSKEMSSDSEYDSDDDRTKEERAYDKAKRRIEKRRLEHSKNVNTEKLRAPIICVLGHVDTGKTKILDKLRHTHVQDGEAGGITQQIGATNVPLEAINEQTKMIKNFDRENVRIPGMLIIDTPGHESFSNLRNRGSSLCDIAILVVDIMHGLEPQTIESINLLKSKKCPFIVALNKIDRLYDWKKSPDSDVAATLKKQKKNTKDEFEERAKAIIVEFAQQGLNAALFYENKDPRTFVSLVPTSAHTGDGMGSLIYLLVELTQTMLSKRLAHCEELRAQVMEVKALPGMGTTIDVILINGRLKEGDTIIVPGVEGPIVTQIRGLLLPPPMKELRVKNQYEKHKEVEAAQGVKILGKDLEKTLAGLPLLVAYKEDEIPVLKDELIHELKQTLNAIKLEEKGVYVQASTLGSLEALLEFLKTSEVPYAGINIGPVHKKDVMKASVMLEHDPQYAVILAFDVRIERDAQEMADSLGVRIFSAEIIYHLFDAFTKYRQDYKKQKQEEFKHIAVFPCKIKILPQYIFNSRDPIVMGVTVEAGQVKQGTPMCVPSKNFVDIGIVTSIEINHKQVDVAKKGQEVCVKIEPIPGESPKMFGRHFEATDILVSKISRQSIDALKDWFRDEMQKSDWQLIVELKKVFEII
modifications: phosphorylated S511
With B5, the HBV/mock is given as 1.3.
